For at least one entry, the source does not settle the construct or the ends of the probe. At least one verdict was read from the data and is not stated in words by the source.

The target of this series is Lsr2 (Mycobacterium tuberculosis H37Rv) (UniProt P9WIP7). Nature of the series: EMSA. To be noted: shift above 1.9 uM; recombinant protein. (In EMSA bound probe runs differently from free probe, usually more slowly.)
In the case of “CTACCACATTAATCGGCATC (double strand) [rv1669 site]”, the binding result is “binds”.

With “GTCTTCCAATTGTCCTTCGG / CCGAAGGACAATTGGAAGA [rv0248c site]”, the binding result is listed as “binds”. As to “TGTGGCGATTTATCGTGCCG (double strand) [rv1306 site]”, the binding result is on record as “binds”.

For the origin of these results see article PMC6906086.
